Record: PubChem BioAssay AID1259414 (Drosophila RNAi Screening Center, 2018)

Test: 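Genome-wide screen for host control of endosymbiont load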 (primary screen)
Cells: Drosophila JW18 cells infected with Wolbachia
Reagent: long dsRNA against Drosophila genes, 0.25 µg dsRNA per well of a 384-well plate
Time to read-out: 5 days
Conditions: cells persistently infected with Wolbachia before knock-down; no added drug
Measurement: 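Automated imaging of bacterial rRNA staining divided by host cell count, reported as plate-normalised robust z-score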
Reading the numbers: Wolbachia per cell robust z: higher = more Wolbachia per host cell than the plate typical
Hit rule: 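Active if absolute robust z reaches 1.5 in two or more of three replicates, leaving out multi- or no-target dsRNAs, genes unexpressed in JW18 and A1 wells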
The deposit covers about 24,000 reagents; below is a random part of those that have a named target and a result. Of all reagents, about 1,210 (5%) got an active call. 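Inactive calls also include excluded dsRNAs with several or no targets, genes unexpressed in JW18, and well A1, regardless of score.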 Names joined by + are all predicted targets of the reagent.

no.	target	DRSC id	Wolbachia per cell robust z, rep 1	Wolbachia per cell robust z, rep 2	Wolbachia per cell robust z, rep 3	Call
1	BBS1	DRSC10196	-0.429	0.26	0.00259	inactive
2	sesB	DRSC20371	0.739	0.965	-5.15	inactive
3	sesB	DRSC29874	1.19	-1	1.08	inactive
4	nop5	DRSC03582	0.123	-0.613	2.14	inactive
5	CG42538	DRSC41467	0.217	0.49	-2.72	inactive
6	CCHa1	DRSC24978	1.25	1.27	-0.0841	inactive
7	mRpS9	DRSC12645	0.227	-1.02	-8.77	inactive
8	mRpS9	DRSC15456	-0.497	-2.8	-0.424	inactive
9	pros	DRSC12856	-1.04	-0.219	-3.12	inactive
10	pros	DRSC17032	0.0503	0.218	-0.00667	inactive
11	pros	DRSC27593	1.62	0.00125	0.728	inactive
12	CG45076 + CG45078 + fau	DRSC22360	0.813	0.933	-0.592	inactive
13	CG4611	DRSC10434	-0.224	-0.0426	-0.335	inactive
14	CG4611	DRSC26382	0.842	-0.595	-0.665	inactive
15	CG4611	DRSC39046	1.54	-0.122	0.358	inactive
16	CG12826	DRSC06175	-1.87	0.385	0.0958	inactive
17	Ppat-Dpck	DRSC09744	-1.85	0.287	0.668	inactive
18	Ppat-Dpck	DRSC41599	-0.107	-1.65	-0.96	inactive
19	pre-mod(mdg4)-V	DRSC41421	0.134	0.445	0.78	inactive
20	rec	DRSC14998	0.276	1.18	2.08	inactive
21	rec	DRSC15656	-0.586	0.952	0.434	inactive
22	CG33287	DRSC22929	-0.361	-0.907	-1.53	inactive
23	CG34213	DRSC38709	0.618	1.52	1.76	active
24	CG40228	DRSC37832	0.582	0.914	-0.0927	inactive
25	lncRNA:CR31647	DRSC21903	-1.98	-0.797	-0.676	inactive
26	lncRNA:CR31647	DRSC24136	2.45	0.924	0.373	inactive
27	Fum3	DRSC10592	-3.52	-1	0.231	inactive
28	Fum3	DRSC25432	1.2	-12.7	1.02	inactive
29	Hira	DRSC18672	0.543	0.291	0.325	inactive
30	PPO1	DRSC05929	-0.848	-0.721	-3.99	inactive
31	PPO1	DRSC40857	-2.08	-1.68	-1.81	inactive
32	CG17271	DRSC15210	-1.04	0.473	-3.26	inactive
33	CG17271	DRSC22982	-0.645	-0.0978	-1.85	inactive
34	CG17271	DRSC25780	-0.00499	-0.454	-0.319	inactive
35	CG2993	DRSC14284	-0.0743	-1.92	0.142	inactive
36	CG2993	DRSC15457	0.207	0.284	0.0141	inactive
37	CG2993	DRSC29995	0.331	0.372	-3.24	inactive
38	CG17612	DRSC00505	0.922	0.128	0.00401	inactive
39	CG17612	DRSC28366	1.3	0.765	0.286	inactive
40	S6KL	DRSC19349	1.24	0.647	-0.328	inactive
41	S6KL	DRSC23147	0.433	-0.305	0.381	inactive
42	GCC185	DRSC15493	-0.759	0.383	-0.17	inactive
43	CG9119	DRSC08620	-0.914	-0.576	-0.116	inactive
44	CG9119	DRSC25290	0.512	2.3	0.211	inactive
45	Polr1C	DRSC02719	0.713	2.09	1	inactive
46	Bdbt	DRSC15218	-0.125	-0.264	0.202	inactive
47	Ir48c	DRSC06154	-1.37	-0.825	-1.16	inactive
48	dpr6	DRSC09005	0.681	1.26	1.51	inactive
49	dpr6	DRSC10162	-2.62	-0.96	0.375	inactive
50	dpr6	DRSC10163	-0.675	0.733	0.909	inactive
51	Rpt6	DRSC20571	1.38	0.7	1.11	inactive
52	Rpt6	DRSC27933	-0.91	-1.5	-0.423	inactive
53	CG6607	DRSC16073	0.471	0.54	0.829	inactive
54	Tm1	DRSC13082	-0.0844	-0.602	0.125	inactive
55	Tm1	DRSC13083	0.123	-2.1	0.933	inactive
56	Tm1	DRSC16886	-0.0132	-2.29	0.22	inactive
57	Tm1	DRSC25249	1.42	0.386	0.493	inactive
58	Tm1	DRSC39135	-0.291	-0.608	-5.71	inactive
59	cindr	DRSC14126	-1.08	-0.0512	-1.74	inactive
60	CG31115	DRSC13692	0.354	-0.119	0.722	inactive
61	CG31115	DRSC26097	-0.572	-0.746	0.276	inactive
62	mub	DRSC11896	-0.673	-0.219	0.0517	inactive
63	mub	DRSC29738	0.00438	-1.68	0.368	inactive
64	CG30355	DRSC21958	-0.542	-0.147	-0.142	inactive
65	RpL38	DRSC07818	2.22	1.11	0.962	inactive
66	CG14488	DRSC06460	-0.473	-0.345	-0.677	inactive
67	Fbl6	DRSC06335	0.282	-0.31	0.497	inactive
68	Fbl6	DRSC24271	-1	0.805	-10.8	inactive
